## Sequence variants of PSTVd stem 15 after infection

Data from the supplement of Wu et al. 2024, doi:10.1371/journal.ppat.1012142.

The pool varies stem 15 of the PSTVd intermediate strain in the pattern CUGGAGCGAUNGNNUNNG; wild type is CUGGAGCGAUCGCUUCGG (upper and lower strand joined, each 5' to 3', the first 9 letters being the upper strand).

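A pool of all variants was put on leaves of three Nicotiana benthamiana plants. Progeny were sequenced from the inoculated region (day 5), the margin of the inoculated leaf (day 10) and systemic leaves (day 12).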

Values are reads per thousand in the sample; higher means more abundant, 0 means not found. Each value is the mean of three plants. "Pool" is the share in the plasmid pool used as inoculum, on the same scale. The inoculated region was read from the minus strand, the other sites from the plus strand. IR is the inoculated region, LM the leaf margin, Sys the systemic leaves. Wild type was 10.2 per thousand in the pool and the most common sequence in every sample (inoculated region 285, 367, 312; leaf margin 785, 865, 782; systemic leaves 854, 898, 915). The authors trace changes outside the varied positions to PCR and sequencing errors or to mutation in the plant; presence does not show that a variant is infectious alone. Samples held 36,693 to 63,082 reads, so the smallest values rest on one or two reads.

sequence	pool	IR	LM	Sys
CAGGAGCGAUAGCUUAAG	0.0162	0	0	0
CUGGAGCGAUUGGUUUAG	2.55	3.09	0.593	0.712
CUGGAGCGAUGGGUUACG	0.937	0.279	0.0345	0
CUGGAGCGAUAGAUUGAG	0.760	0.273	0.0303	0
AUGGAGCGAUAGACUAAG	0.0162	0	0	0
CUGGAGCGAUCGAGUGAG	0.760	0.243	0.0419	0
CUGGAGCGAUUGUAUAUG	0.873	0.318	0.0685	0
CUGGAGCGAUCGGUUCGG	0.695	0.369	0.0372	0.0332
CUGGAGCGAUAGACUAAG	1.87	1.70	0.0287	0.00739
CUGGAGCGAUAGGCUGAG	0.760	0.303	0.0403	0
CUGGAGCGAUGGUGUAUG	0.695	0.255	0.0434	0
CUGGAGCGAUAGGGUCGG	1.10	0.326	0.0251	0
CUGGAGCGAUCGUGUGAG	0.986	0.282	0.0350	0
CUGGAGCGAUGGGUUGUG	0.792	0.319	0.0532	0
CUGGAGCGAUAGGAUUGG	0.889	0.292	0.0282	0
CUGGAGCGAUGGGAUGCG	0.776	0.278	0.0435	0
CUGGAGCGAUUGGGUGAG	1.07	0.501	0	0
CUGGAGCGAUAGGAUUCG	0.840	0.257	0.0707	0
CUGGAGCGAUAGUUUGUG	0.824	0.275	0.0312	0
CUGGAGCGAUGGCAUCAG	0.970	0.281	0.0510	0
CUGGAGCGAUGGUAUCCG	1.05	0.297	0.0456	0
CUGGAGCGAUAGAUUUAG	0.840	0.287	0.0260	0
CUGGAGCGAUUGCAUUUG	1.02	0.482	0.0381	0
CUGGAGCGAUCGAAUAGG	1.00	0.323	0.0260	0
CUGGAGCGAUUGCAUUCG	0.808	0.275	0.0334	0
CUGGAGCGAUUGGUUGUG	2.50	1.98	0.0510	0.0140
CUGGAGCGAUCGGGUGUG	0.937	0.300	0.0350	0
CUGGAGCGAUUGUCUUUG	0.711	1.46	0.727	0.621
CUGGAGCGAUAGAUUCCG	1.02	0.265	0.0197	0
CUGGAGCGAUCGCCUUGG	0.792	0.202	0.0488	0